Measured values from several laboratories, pooled; numbers as filed in NIAID ChemDB.

Common to all: whole-cell or culture tests; species: HIV-1; endpoint: EC50

Neighbouring rows are from separate reports. An empty or dashed field is not shown. ECn: concentration that inhibits the pathogen or its effect by n%.

SMILES	strain or isolate	method	cells	changes	value
Cc1cc(-n2c(C)nnc2SCC(=O)Nc2ccccc2Br)c2ccccc2c1C	NL4-3	luciferase	HeLa + HeLa-JC53	RT-K103N Y181C	0.031 µM
CCOCn1c(Cc2ccccc2)c(C(C)C)c(=O)[nH]c1=O	NNRTI-resistant (RT K103N Y181C) A17	cytopathic effect / MTT	MT-4	RT-K103N Y181C	>10 µM
CCc1ccc(-n2c(C)nnc2SCC(=O)Nc2ccc(C)cc2Cl)c2ccccc12	NL4-3	luciferase	HeLa + HeLa-JC53	RT-K103N Y181C	0.032 µM
NCCSSCCN		p24	CEM-SS		>100 µM
CCN(CC)C(=O)OCC1CN(Cc2ccccc2)CCN1Cc1ccccc1	BaL	RT activity	MDM		2 µM
CC1(Cc2ccccc2)OS(=O)(=O)C(c2ccccc2)=C1N	IIIB	cytopathic effect / MTT	MT-4		>125 µg/mL
COc1cnc(-n2cnc(C)n2)c2c1c(C(=O)C(=O)N1CCN(C(=O)c3ccccc3)CC1)cn2COP(=O)(O)O	NL4-3	luciferase	U-87		0.0024 µM
Cc1ncc(-c2ccc(OCCOc3c(F)cccc3Cl)cn2)c(N2CCC(C)(C)CC2)c1[C@H](OC(C)(C)C)C(=O)O	NL4-3	luminescence	MT-2		0.0008 µM
COc1ccc(CNC2=CS(=O)(=O)OC2(C)C)c(OC)c1	IIIB	cytopathic effect / MTT	MT-4		>125 µg/mL
CCN(CC)C(=O)OCC1CN(C(=O)c2cc(OC)c(O)c(OC)c2)CCN1C(=O)c1cc(OC)c(OC)c(OC)c1	BaL	RT activity	MDM		<100 µM
CC1(C)C(N)=CS(=O)(=O)N1Cc1ccccc1	IIIB	cytopathic effect / MTT	MT-4		>125 µg/mL
Cn1c(=O)sc2cc(C(=O)c3ccc(Cl)c(Cl)c3)ccc21	IIIB	syncytia	CEM		>8 µg/mL
Nc1c2ccccc2nc2ccccc12	Latently infected cell	MTT	ACH2		>50 µM
Cc1ncc(-c2cnc(OCC3CCNCC3)c(F)c2)c(N2CCC(C)(C)CC2)c1[C@H](OC(C)(C)C)C(=O)O	NL4-3	luminescence	MT-2		0.116 µM
Cn1c(=O)sc2cc(C(=O)c3cccc([N+](=O)[O-])c3)ccc21	IIIB	syncytia	CEM		>8 µg/mL
Cc1ncc(-c2ccc(N(C)CCOc3ccc(Cl)cc3F)nc2)c(N2CCC(C)(C)CC2)c1[C@H](OC(C)(C)C)C(=O)O	NL4-3	luminescence	MT-2		0.0025 µM
CCc1c(Cc2cc(Cl)cc(Cl)c2)n(COC/C(C)=C/c2ccccc2)c(=O)[nH]c1=O	IIIB	cytopathic effect / MTT	MT-4		0.03 µM
CC1(C)OS(=O)(=O)C=C1NCCc1ccccc1	IIIB	cytopathic effect / MTT	MT-4		>125 µg/mL
CCOCn1c(Cc2cc(Cl)cc(Cl)c2)c(CC)c(=O)[nH]c1=O	NNRTI-resistant (RT K103N Y181C) A17	cytopathic effect / MTT	MT-4	RT-K103N Y181C	>10 µM
CN(C)c1ccc(-n2c(SCC(=O)Nc3ccc(S(N)(=O)=O)cc3Cl)nnc2C(F)(F)F)c2ccccc12	NL4-3	luciferase	HeLa + HeLa-JC53	RT-Y188L	0.007 µM
CCOCC(C)Oc1ccc(-c2cnc(C)c([C@H](OC(C)(C)C)C(=O)O)c2N2CCC(C)(C)CC2)nc1	NL4-3	luminescence	MT-2		0.0016 µM
O=C(c1ccccc1)c1ccc2c(c1)oc(=O)n2CCN1CCCCC1	IIIB	syncytia	CEM		>8 µg/mL
CCN(CC)C(=O)OCC1CN(C(=O)c2ccncc2)CCN1C(=O)c1ccncc1	BaL	RT activity	MDM		>100 µM
CCN(CC)C(=S)S		p24	CEM-SS		>100 µM
CSCSc1nc(Cc2c(F)cccc2F)cc(=O)[nH]1	IIIB	cytopathic effect / MTT	MT-4	RT-K103N Y181C	>100 µM
COc1ccc(OCCNc2ccc(-c3cnc(C)c([C@H](OC(C)(C)C)C(=O)O)c3N3CCC(C)(C)CC3)cn2)cc1	NL4-3	luminescence	MT-2		0.002 µM
CCCCOc1c(OC)cc(C(=O)N2CCN(Cc3ccccc3)CC2COC(=O)N(CC)CC)cc1OC	BaL	RT activity	MDM		>5 µM
CSCSc1nc(C(C)c2c(F)cccc2F)cc(=O)[nH]1	IIIB	cytopathic effect / MTT	MT-4	RT-K103N Y181C	>100 µM
Nc1ccc2nc3ccccc3cc2c1			CEM		>50 µM
O=C(c1ccccc1)c1ccc2[nH]c(=O)sc2c1	IIIB	syncytia	CEM		>1.6 µg/mL
Cc1ccc2cccc(C)c2c1-n1c(C)nnc1SCC(=O)Nc1ccccc1Br	NL4-3	luciferase	HeLa + HeLa-JC53	RT-Y188L	0.48 µM
COC(=O)c1ccc(C2(C)OS(=O)(=O)C=C2N)cc1	IIIB	cytopathic effect / MTT	MT-4		>125 µg/mL
C=C(C)COc1ccc(-c2cnc(C)c([C@H](OC(C)(C)C)C(=O)O)c2N2CCC(C)(C)CC2)nc1	NL4-3	luminescence	MT-2		0.0033 µM
O=C(c1ccccc1)c1ccc2c(c1)sc(=O)n2Cc1ccccc1	IIIB	syncytia	CEM		>8 µg/mL
Cc1ccc(-n2c(C)nnc2SCC(=O)Nc2ccc(C(C)C)cc2Br)cc1	NL4-3	luciferase	HeLa + HeLa-JC53	RT-K103N Y181C	>10 µM
CC(C)OC(=O)OCOP(=O)(CO[C@H](C)Cn1cnc2c(N)ncnc21)OCOC(=O)OC(C)C	A17	p24 / ELISA	C8166		0.01504 µM
Cc1ccc(-n2c(C)nnc2SCC(=O)Nc2ccccc2Br)c2ccccc12	NL4-3	luciferase	HeLa + HeLa-JC53	RT-Y188L	0.069 µM
CCCCOc1c(OC)cc(C(=O)N2CCN(C(=O)c3cc(OC)c(OC)c(OC)c3)CC2COC(=O)N(CC)CC)cc1OC	BaL	RT activity	MDM		>100 µM

The last 5 rows once more:

SMILES | strain or isolate | method | cells | changes | value
O=C(c1ccccc1)c1ccc2c(c1)sc(=O)n2Cc1ccccc1 | IIIB | syncytia | CEM |  | >8 µg/mL
Cc1ccc(-n2c(C)nnc2SCC(=O)Nc2ccc(C(C)C)cc2Br)cc1 | NL4-3 | luciferase | HeLa + HeLa-JC53 | RT-K103N Y181C | >10 µM
CC(C)OC(=O)OCOP(=O)(CO[C@H](C)Cn1cnc2c(N)ncnc21)OCOC(=O)OC(C)C | A17 | p24 / ELISA | C8166 |  | 0.01504 µM
Cc1ccc(-n2c(C)nnc2SCC(=O)Nc2ccccc2Br)c2ccccc12 | NL4-3 | luciferase | HeLa + HeLa-JC53 | RT-Y188L | 0.069 µM
CCCCOc1c(OC)cc(C(=O)N2CCN(C(=O)c3cc(OC)c(OC)c(OC)c3)CC2COC(=O)N(CC)CC)cc1OC | BaL | RT activity | MDM |  | >100 µM